Anti-infective test results gathered from many reports (values: NIAID ChemDB through PubChem).

Common to all: toxicity to cultured cells; cell line: VERO; endpoint: CC50

Neighbouring rows are from separate reports.

c1ccn2cc(-c3ccoc3)cc2c1 ; method: MTT ; value: >500 µM
CC(C1=NN/C(=N\c2ccccn2)SC1)N1C(=O)c2ccccc2C1=O ; value: 333 µg/mL
CCN(CC)C(=O)C1CCCN(c2nc3c(cc2[N+](=O)[O-])c(=O)c(C(=O)O)c2sc4ccccc4n23)C1 ; value: 119 µM
COc1ccc(/C=N/Nc2ccnc3ccc(C4CCCCC4)cc23)c2ccccc12 ; value: 13.2 µg/mL
COCc1cn([C@H]2C[C@H](O)[C@@H](CO)O2)c(=O)[nH]c1=O ; value: 512 µg/mL
CCOC(=O)c1cc(CNc2ccc(OC(F)(F)F)cc2)on1 ; value: >128 µM
CC[C@]1(C)C[C@@H](OC(=O)CSC(C)(C)CNC(=O)[C@H](N)CC(C)C)[C@]2(C)[C@H](C)CC[C@]3(CCC(=O)[C@H]32)[C@@H](C)[C@@H]1O ; method: MTT ; value: 5.26 µg/mL
O=C(NCN1CCN(c2ccc(C(F)(F)F)cc2)CC1)c1cnccn1 ; value: >62.5 µg/mL
Cc1ccccc1NC(=O)c1cccc2[nH]c(-c3ccncc3)nc12 ; value: 10.74 µg/mL
CC[C@]1(C)C[C@@H](OC(=O)CSC(C)(C)CNC(=O)[C@H](N)C(C)C)[C@]2(C)[C@H](C)CC[C@]3(CCC(O)[C@H]32)[C@@H](C)[C@@H]1O ; method: MTT ; value: 5.26 µg/mL
CO[C@H](CO)[C@@H](O)CCn1cnc2c(N)ncnc21 ; value: >400 µg/mL
CCOC(=O)c1cc(-c2cc(C(F)(F)F)cc(C(F)(F)F)c2)on1 ; value: >128 µM
CCN(CC)Cc1cc(N(c2cc(C)nc3cc(Cl)ccc23)S(=O)(=O)c2cc(C)cc(C)c2)ccc1O ; method: resazurin ; value: 114 µg/mL
COc1cc(/C=N/N=C2\SC(CC(=O)O)C(=O)N2c2ccccc2)ccc1O ; value: 100 µM
O=C(Nc1ccc(Cl)cc1)c1cccc2[nH]c(-c3ccncc3)nc12 ; value: 20.45 µg/mL
COc1ccc(/C=N/Nc2cc(C)nc3ccc(F)cc23)c2ccccc12 ; value: 1.9 µg/mL
O=C(O)CC1S/C(=N\N=C\c2ccc(Cl)cc2Cl)N(c2ccccc2)C1=O ; value: 2000 µM
Cc1c(C(=O)c2ccccc2)[n+](=O)c2cc(Cl)c(Cl)cc2n1[O-] ; value: 3.3 µg/mL
C[C@]1(CO)[C@@H](Cn2cnc3c(=O)[nH]c(N)nc32)C1(F)F ; value: >100 µM
O=C(O)CP(=O)(O)O ; value: 172 µg/mL
O=C(Nc1ccc([N+](=O)[O-])cc1)c1cccc2[nH]c(-c3ccncc3)nc12 ; value: 55.5 µg/mL
O=C(NCN1CCN(c2cc3c(cc2F)c(=O)c(C(=O)O)cn3C2CC2)CC1)c1cnccn1 ; value: >62.5 µg/mL
Cc1cn(C[C@H]2C[C@H]2CO)c(=O)[nH]c1=O ; value: >100 µM
CC(=O)c1c(C)n([O-])c2ccccc2[n+]1=O ; value: >62.5 µg/mL
Nc1ncnc2c1ncn2C1CC(CO)[C@@H](O)[C@H]1O ; value: 4 µg/mL
Nc1ncnc2c1ncn2CC[C@H](O)CCO ; value: >400 µg/mL
Cc1ccc2c(c1)[n+](=O)c(C(=O)c1ccccc1)c(C)n2[O-] ; value: >10 µg/mL
CCCCCCCCCCCCCCC[C@H](O)C[C@H]1CC=CC(=O)O1 ; value: 3.07 µg/mL
CCOC(=O)c1cc(CN(C)c2ccc(OC(F)(F)F)cc2)on1 ; value: >128 µM
O=C1c2ccccc2C(=O)N1C(Cc1ccccc1)C1=NNC(=Nc2ccccc2)SC1 ; value: 53.41 µg/mL
O=CNCCCC[C@@H](NC(=O)[C@H]1COC(c2ccccc2O)=N1)C(=O)O ; value: >64 µg/mL
CCCCCCCCCCCCCCC[C@H](O)CCC[C@H](O)C[C@H]1CC=CC(=O)O1 ; value: 2.2 µg/mL
CC(=O)N(C1=NN=C(C(C)N2C(=O)c3ccccc3C2=O)CS1)c1ccccc1 ; value: 111 µg/mL
Nc1nc2c(ncn2COC(CO)CO)c(=O)[nH]1 ; value: 900 µM
O=C(O)c1c(=O)c2cc([N+](=O)[O-])c(N3CCC(n4c(=O)[nH]c5cc(Cl)ccc54)CC3)nc2n2c1sc1ccccc12 ; value: 106 µM
N#Cc1ccn2cc(-c3ccccc3)cc2c1 ; method: MTT ; value: 253 µM
CC(=O)O[C@@H]1C[C@H](O)C23COC(O)[C@]1(C)C2C[C@@H](O)C1(C)C3C(=O)[C@H](OC(C)=O)[C@@]2(C)[C@H](c3ccoc3)CC3OC312 ; value: 400 µg/mL
CCCCCCCCCCCCCCC[C@H](O)CCCC[C@H]1CC=CC(=O)O1 ; value: 4.6 µg/mL
CON1CCc2c([nH]c3ccccc23)[C@@H]1[C@@H](N)CSC ; value: ≥100 µg/mL
COc1ccc(/C=N/Nc2ccnc3ccccc23)c2ccccc12 ; value: 3.5 µg/mL
CC[C@]1(C)C[C@@H](OC(=O)CSC(C)(C)CNC(=O)[C@H](N)CC(C)C)[C@]2(C)[C@H](C)CC[C@]3(CC/C(=N\OC)[C@H]32)[C@@H](C)[C@@H]1O ; method: MTT ; value: 5 µg/mL
CC(=O)c1c(C)n([O-])c2ccc(Cl)cc2[n+]1=O ; value: 15.7 µg/mL
C=C[C@]1(C)C[C@@H](OC(=O)CSC(C)(C)CNC(=O)[C@H](N)C(C)C)[C@]2(C)[C@H](C)CC[C@]3(CCC(=O)[C@H]32)[C@@H](C)[C@@H]1O ; method: MTT ; value: 15.59 µg/mL
c1coc(-c2cc3ccccn3c2)c1 ; method: MTT ; value: >500 µM
CCCCCCCCCCCCCCC[C@H](O)C[C@H](O)CCC[C@H]1CC=CC(=O)O1 ; value: 3.02 µg/mL
O=CNCCCC[C@H](NC(=O)[C@H]1COC(c2ccccc2O)=N1)C(=O)O ; value: >64 µg/mL
Nc1ccn([C@H]2S[C@@H](CO)C=C2F)c(=O)n1 ; value: >100 µM
NC1CSCON2CCc3c([nH]c4ccccc34)[C@H]12 ; value: ≥4 µg/mL
Brc1ccc(-c2cc3ccccn3c2)cc1 ; method: MTT ; value: >500 µM
CCn1cc(C(=O)O)c(=O)c2cc(F)c(N3CCN(CNC(=O)c4cnccn4)CC3)c(F)c21 ; value: >62.5 µg/mL
COc1cc2c(cc1OC)[C@@H]1C(N)CSCON1CC2 ; value: 40 µg/mL
Nc1ncnc2c1ncn2C[C@H]1C[C@H]1CO ; value: >100 µM
NC(=O)NO ; value: 1000 µM
Nc1nc(Cl)nc2c1ncn2[C@H]1O[C@H](CO)[C@@H](F)[C@@H]1F ; value: >100 µM
O=C(O)c1c(=O)c2cc([N+](=O)[O-])c(N3CCC(N4CCCCC4)CC3)nc2n2c1sc1ccccc12 ; value: 123 µM
CO[C@H](CO)[C@@H](O)CCn1cnc2c(=O)[nH]c(N)nc21 ; value: >400 µg/mL
CC(=O)c1c(-c2ccc(C#N)cc2)cc2ccccn12 ; method: MTT ; value: >500 µM
Cc1cn(C[C@H]2C[C@H]2[C@H](O)CO)c(=O)[nH]c1=O ; value: >100 µM
CCCCc1ccc2nc(C)cc(N/N=C/c3ccc4c(c3)OCO4)c2c1 ; value: 6.8 µg/mL
c1ccc(-c2cc3ccccn3c2)nc1 ; method: MTT ; value: 214 µM
O=C(O)CC1S/C(=N\N=C\c2ccc(Cl)cc2)N(c2ccccc2)C1=O ; value: 2000 µM
CC(C1=NNC(=NCc2ccc(Cl)cc2)SC1)N1C(=O)c2ccccc2C1=O ; value: 192 µg/mL
C[C@@H]1CC[C@H]2C(C)(C)[C@H](O)CC[C@]2(C)C12Cc1c(O)cc3c(c1O2)COC3=O ; value: >50 µg/mL
Nc1ncnc2c1ncn2[C@@H]1O[C@H](CO)[C@@H](F)[C@@H]1F ; value: >100 µM
NC1=NC=NC2C1N=CN2[C@H]1C[C@@H](CCP(=O)(O)O)CO1 ; method: MTT ; value: >100 µg/mL
COc1cc(/C=N/N=C2\SC(CC(=O)O)C(=O)N2c2ccccc2)cc(OC)c1OC ; value: 2000 µM
CC(C)c1ccc(NC(=O)N2CCC[C@H]2C(=O)N2CC[C@H]3[C@H]2[C@H](C)C(=O)N3C(=O)C2CC2)cc1 ; value: 274 µM
C[C@]1(Cn2cnc3c(=O)[nH]c(N)nc32)[C@H](COCP(=O)(O)O)C1(F)F ; value: >100 µM
Nc1nc2c(ncn2C[C@H]2C[C@H]2CO)c(=O)[nH]1 ; value: >100 µM
CC(C1=NNC(=Nc2ccc([N+](=O)[O-])cc2)SC1)N1C(=O)c2ccccc2C1=O ; value: 192 µg/mL
CC(C)c1ccc(NC(=O)N2CCC[C@H]2C(=O)N2CC[C@H]3[C@H]2[C@H](C)C(=O)N3C(=O)c2nccs2)cc1 ; value: 280 µM
CC#Cc1cn([C@@H]2O[C@H](CO)[C@@H](O)[C@@H]2O)c(=O)[nH]c1=O ; value: >500 µM
Cc1cn([C@@H]2O[C@H](CO)[C@@H](O)[C@@H]2F)c(=O)[nH]c1=O ; value: 40 µM

CCn is the concentration with n% toxicity to the cells.